# Percent effect of library compounds

Data taken from ChEMBL document CHEMBL3988442, “University of Dundee, Small-Polar-MMV Screening Library” (2021).

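Phenotypic screen: M. tuberculosis growth, cholesterol and DPPC medium, 4 days; the read-out is not stated. Compounds at 500 µM. Direction is inferred from retests: higher values go with more growth inhibition. Size under these conditions: about 18,000 compounds, about 900 of them at 50% or above in at least one test.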

Values are the deposited “Percent Effect”, in %.
The record does not define 0% and 100%; most values in the screen are far below 50% and negative numbers occur (in some assays of this library far below -100).
The entries come from a sample that favours strong results.

NCc1ccc(Cl)cn1 gave 91.35%.
CC(C)OCCOCC(O)CN(C)Cc1cccnc1 (stereo not drawn) gave -6.918%.
CCCNC(=O)N1CCC2(CC1)OCCO2 gave 32.46%.
CC1CN(CCC(=O)NC(N)=O)CCO1 (stereo not drawn) gave 108.6%.
COc1ccccc1C(=O)CN gave 0.4123%.
O=C(Nc1nncs1)NC1CCNCC1 gave 8.094%.
O=S(=O)(Cc1ccccn1)Cc1ccccc1Cl gave 14.52%.
Cc1ccc(C(N)=O)c(O)c1 gave 4.677%.
CC(NC(=O)CSc1nc(=O)[nH]n1C)c1cccs1 (stereo not drawn) gave 95.31%.
COc1ccc(S(=O)(=O)Nc2cccc(CN)c2)cc1 gave 53.17%.
Cc1ccc(C(=O)NCc2ccc3c(c2)OCCO3)o1 gave 72.46%.
COCC1CN(c2ccccn2)CCO1 (stereo not drawn) gave 6.145%.
CC[C@H](N)C(=O)N1CCCc2cc(OC)ccc2C1 gave 11%.
CCn1ncnc1CN1CCCCC1c1ccccn1 (stereo not drawn) gave 8.516%.
CCC(N)C(=O)N1CCN(c2cc(C)ccc2C)CC1 (stereo not drawn) gave -17.47%.
CC(C)(C)OC(=O)[C@H]1CCCN1CCO gave 11.1%.
CC(C)(C)OC(=O)N[C@H]1CCNC1 gave 17.49%.
N#Cc1ccc(S(=O)(=O)N2CCC[C@@H](N)C2)cc1Cl gave 27.62%.
CO[C@H]1CNCC1NC(=O)c1ccc2ncccc2c1 (stereo partly drawn) gave 10.24%.
CSCCOC(=O)c1ccc2nncn2c1 gave 1.886%.
Fc1ccc(Cn2ccnn2)c(Cl)c1 gave 83%.
CC1CCCCN1S(=O)(=O)N1CCNCC1 (stereo not drawn) gave 79.13%.
COCCn1cc(C(F)(F)F)ccc1=O gave -20.29%.
CCCC1SCCN1C(=O)c1c[nH]c(=O)cc1C (stereo not drawn) gave -0.2783%.
CC(N)CCc1ccc2c(c1)OCO2 (stereo not drawn) gave 51.74%.
CN1C(=O)CCc2cc(C(=O)N3CCCC3)ccc21 gave 15.64%.
CNC(=O)c1ccc(NC(=O)N(C)CCOC)cc1 gave 14.59%.
c1ccc(-c2n[nH]c(C3CCCNC3)n2)cc1 (stereo not drawn) gave 4.486%.
CN(C)c1ncc(CNC(=O)C2(C)CCC2)n1C gave -1.95%.
CC1(C)CN(C(=O)c2cc(C3CC3)on2)CCO1 gave 26.2%.
NCCS(=O)(=O)NCC1CCC1 gave -6.97%.
CC[S+]([O-])CC(=O)NCCc1nc2c(s1)CCCC2 (stereo not drawn) gave 9.631%.
NC(=O)NC(=O)CCN1CCCc2c(Br)cccc2C1 gave 54.08%.
CC(=O)NCc1ccc(OC2CCN(C)CC2)cc1 gave 16.17%.
NCCc1nc(-c2cccc(Cl)c2)no1 gave 72.04%.
CCn1nc(C)cc1C(=O)Nc1ccnc(N(C)C)n1 gave 58.68%.
Clc1ccc2oc(N3CCNCC3)nc2c1 gave 11.87%.